Pooled drug test results. Numbers come from NIAID ChemDB, via PubChem.

Shared fields: growth or infection tests; organism: HIV-1; cell line: CEM + CEM-SS; measure: EC50

ECn is the concentration giving n% inhibition of infection, replication or growth.

| structure | strain | mutations | method | value |
|---|---|---|---|---|
| Cc1occc1C(=S)Nc1ccc(Cl)c(C(=O)OCC2CC2)c1 | IIIB | - | cytopathic effect / XTT | 0.02 µM |
| CCCCCCCCCCCCCCOP(=O)(O)OCCC=C(c1cc(Cl)c(O)c(C(=O)O)c1)c1cc(Cl)c(O)c(C(=O)O)c1 | RF | - | cytopathic effect / XTT | >101 µM |
| O=C(O)CCCCCCCCCCCCCNC(=O)C(CO[C@@H]1O[C@H](CO)[C@H](O)[C@H](O)[C@H]1O)NC(=O)CCC(=O)O | LAI | - | cytopathic effect / MTT | >100 µM |
| CCCc1cc(=O)oc2c3c(c4c(c12)OC(C)(C)CC4)O[C@H](C)[C@@H](C)C3=O | RF | - | cytopathic effect / XTT | 0.9 µM |
| CSC1=NS(=O)(=O)N([C@@H]2O[C@H](CO)[C@@H](O)[C@H](O)[C@H]2O)C(=O)N1 | IIIB | - | syncytia | >200 µg/mL |
| CC(C)CCC[C@@H](C)[C@H]1CC[C@H]2[C@@H]3CC[C@H]4C[C@H](NC(=O)C=C(c5cc(Cl)c(O)c(C(=O)O)c5)c5cc(Cl)c(O)c(C(=O)O)c5)CC[C@]4(C)[C@H]3CC[C@]12C | RF | - | cytopathic effect / XTT | >26.6 µM |
| CC(C)CC[C@@H](O)[C@@H](C)[C@H]1CCC2C3C[C@H](OS(=O)(=O)O)C4C[C@@H](OS(=O)(=O)O)CC[C@]4(C)C3=CC[C@@]21C | RF | - | p24 | 101 µM |
| O=S1(=O)C[C@@H](O)[C@@H](O)CS1 | RF | - | cytopathic effect / XTT | 16.2 µM |
| Cc1occc1C(=S)Nc1ccc(Cl)c(/C=N/OC(C)(C)C)c1 | NL4-3 | RT-L74V | cytopathic effect / XTT | 0.07 µM |
| C/C(=C(/CCO)SS/C(CCO)=C(\C)N(C=O)Cc1cnc(C)nc1N)N(C=O)Cc1cnc(C)nc1N | RF | - | cytopathic effect / XTT | >535 µM |
| NC(=O)c1cccc(N=O)c1 | RF | - | cytopathic effect / XTT | >10.6 µM |
| COC(=O)C[C@H](O)[C@@H](NC(=O)[C@H](C)NC(=O)C[C@H](O)[C@@H](N)C(F)(F)F)C(F)(F)F | LAI | - | RT activity | >100 µg/mL |
| C=Cc1cccc([C@H]2c3ccccc3S(=O)(=O)N2C)c1 | RF | - | cytopathic effect / XTT | 0.9 µM |
| CCOC(=O)N1CCC(C(c2cc(C)c(OC)c(C(=O)OC)c2)c2cc(C)c(OC)c(C(=O)OC)c2)CC1 | RF | - | - | 5.23 µM |
| COc1c(Cl)cc(C(=CCN[C@@H]2CC[C@@]3(C)[C@@H](CC[C@@H]4[C@@H]3CC[C@]3(C)[C@@H]([C@H](C)CCCC(C)C)CC[C@@H]43)C2)c2cc(Cl)c(OC)c(C(=O)O)c2)cc1C(=O)O | RF | - | cytopathic effect / XTT | >61.7 µM |
| Nc1nc(=O)n([C@H]2O[C@@H](CO)[C@@H](O)[C@H]2O)cc1F | LAI | - | cytopathic effect / MTT | >100 µM |
| C=CCO/N=C/c1cc(NC(=S)c2ccoc2C)ccc1Cl | NL4-3 | RT-V106A | cytopathic effect / XTT | 0.8 µM |
| Nc1nc(=O)n([C@H]2O[C@@H](CO)[C@H](O)[C@@H]2O)cc1F | LAI | - | cytopathic effect / MTT | >100 µM |
| COc1cc(C)cc2c(-c3c(O)cc(O)c4c3C[C@H](C)N[C@H]4C)cc(-c3cc(-c4c(O)cc(O)c5c4C[C@H](C)N[C@H]5C)c4cc(C)cc(OC)c4c3O)c(O)c12 | - | - | - | 5.8–9.5 µM |
| CCCCCCCCCCc1nccn(COCCO)c1=O | LAI | - | - | >100 µM |
| COC(=O)C[C@H](O)[C@@H](NC(=O)Oc1ccccc1)C(F)(F)F | LAI | - | RT activity | >100 µg/mL |
| Cn1cc(NC(=O)Nc2cc(C(=O)Nc3cc(C(=O)Nc4ccc5c(S(=O)(=O)O)cccc5c4S(=O)(=O)O)n(C)c3)n(C)c2)cc1C(=O)Nc1cc(C(=O)Nc2ccc3c(S(=O)(=O)O)cccc3c2S(=O)(=O)O)n(C)c1 | RF | - | cytopathic effect / XTT | 23 µM |
| CC(=O)O[C@@H]1C[C@H]2[C@@H]3C[C@H](OP(=O)(O)OC4O[C@H](CO)[C@@H](O)[C@H](O)[C@H]4O)[C@H]4C[C@@H](OS(=O)(=O)O)CC[C@]4(C)[C@H]3CC[C@]2(C)[C@H]1[C@H](C)CCCC(C)C | RF | - | cytopathic effect / XTT | >100 µM |
| COc1c(Cl)cc(C(=CCN[C@H]2CC[C@@]3(C)[C@@H](CC[C@@H]4[C@@H]3CC[C@]3(C)[C@@H]([C@H](C)CCCC(C)C)CC[C@@H]43)C2)c2cc(Cl)c(OC)c(C(=O)O)c2)cc1C(=O)O | RF | - | cytopathic effect / XTT | >125 µM |
| CCCCCCCCCCCCCCNC(=O)[C@H](N)CO[C@@H]1O[C@H](CO)[C@H](O)[C@H](O)[C@H]1O | LAI | - | RT activity | >100 µM |
| COC(=O)C[C@H](O)[C@@H](N)C(F)(F)F | LAI | - | RT activity | >100 µg/mL |
| CC=CCOc1cc(NC(=S)c2ccoc2C)ccc1OC | NL4-3 | RT-V106A | cytopathic effect / XTT | 0.6 µM |
| O=C(O)CCCCCCCCCCCCC(=O)NC(CO[C@@H]1O[C@H](CO)[C@H](O)[C@H](O)[C@H]1O)C(=O)NCCOS(=O)(=O)O | LAI | - | cytopathic effect / MTT | 10 µM |
| CC(C)CCC[C@@H](C)[C@H]1CC[C@H]2[C@@H]3CC[C@H]4C[C@@H](NC(=O)C=C(c5cc(Cl)c(O)c(C(=O)O)c5)c5cc(Cl)c(O)c(C(=O)O)c5)CC[C@]4(C)[C@H]3CC[C@]12C | RF | - | cytopathic effect / XTT | 5.2 µM |
| CC(C)[C@H](CC[C@@H](C)[C@H]1C[C@H](OS(=O)(=O)O)[C@H]2[C@@H]3[C@H](O)[C@H](O)[C@H]4C[C@@H](O)CC[C@]4(C)[C@H]3CC[C@@]21C)OC1OC[C@@H](O)[C@H](O)[C@@H]1O | RF | - | cytopathic effect / XTT | >100 µM |
| CCOC(=O)N1CCC(=C(c2cc(Cl)c(OC)c(C(=O)O)c2)c2cc(Cl)c(OC)c(C(=O)O)c2)CC1 | RF | - | - | 88.5 µM |
| CCCCCCCCCCCCCCNC(=O)[C@H](CS[C@@H]1O[C@H](CO)[C@H](O)[C@H](O)[C@H]1N)NC(=O)CCCCCCCCCCC | LAI | - | RT activity | >22 µM |
| Cn1cc(NC(=O)Nc2cc(C(=O)Nc3cc(C(=O)Nc4ccc5cc(S(=O)(=O)O)cc(S(=O)(=O)O)c5c4)n(C)n3)n(C)c2)cc1C(=O)Nc1cc(C(=O)Nc2ccc3cc(S(=O)(=O)O)cc(S(=O)(=O)O)c3c2)n(C)n1 | RF | - | cytopathic effect / XTT | 6.5 µM |
| CCN1c2cc(Br)cc3[nH]c(=S)n(c23)CCC1C | - | - | - | 3.86 µM |
| COC(=O)c1cc(C(=C2CCN(C(=O)OC)CC2)c2cc(Cl)c(OC)c(C(=O)OC)c2)cc(Cl)c1OC | RF | - | - | 8.4 µM |
| Cc1occc1C(=S)Nc1ccc(Cl)c(COC(C)(C)C)c1 | IIIB | - | cytopathic effect / XTT | 0.14 µM |
| CC(C)(C)NC(=O)[C@@H]1C[C@@H]2CCCC[C@@H]2CN1C[C@@H](O)[C@H](CSc1ccc2ccccc2c1)NC(=O)[C@H](CC(N)=O)NC(=O)c1ccc2ccccc2n1 | - | - | - | <0.0014 µM |
| CN1[C@H](c2cccc(Cl)c2)c2ccccc2S1(=O)=O | RF | - | cytopathic effect / XTT | 5.28 µM |
| CC(C)=CCOc1cc(NC(=S)c2ccsc2C)ccc1Cl | 4xAZT(RT-D67N K70R T215Y K219Q) | - | p24 | 0.006 µM |
| CSC1=NS(=O)(=O)N([C@@H]2O[C@H](COC(=O)c3ccccc3)[C@@H](OC(=O)c3ccccc3)[C@H]2OC(=O)c2ccccc2)C(=O)N1 | IIIB | - | syncytia | >40 µg/mL |
| O=C(O)C[C@H](O)[C@@H](NC(=O)Oc1ccccc1)C(F)(F)F | LAI | - | RT activity | >100 µg/mL |
| CCCCCCCCCCc1nccn(CCCCO)c1=O | LAI | - | - | >100 µM |
| Cn1cc(NC(=O)Nc2cc(C(=O)Nc3cc(C(=O)Nc4ccc(P(=O)(O)O)c5cc(P(=O)(O)O)ccc45)n(C)c3)n(C)c2)cc1C(=O)Nc1cc(C(=O)Nc2ccc(P(=O)(O)O)c3cc(P(=O)(O)O)ccc23)n(C)c1 | N119 | - | cytopathic effect / XTT | 0.3 µM |
| CCCCCCCCCCCCCCCC(=O)OCCC[N+](C)(C)CCOCn1cc(C)c(=O)[nH]c1=O | IIIB | - | plaque count / syncytia | 6.8 µM |
| Cn1cc(N)cc1C(=O)Nc1cc(C(=O)Nc2ccc(S(=O)(=O)O)c3cc(S(=O)(=O)O)ccc23)n(C)c1 | RF | - | cytopathic effect / XTT | 34.9 µM |
| CC(C)CCC[C@@H](COS(=O)(=O)[O-])[C@H]1CCC2C3CC=C4[C@@H](O)[C@H](OS(=O)(=O)[O-])[C@H](O)C[C@]4(C)C3CC[C@@]21C.[Na+].[Na+] | RF | - | cytopathic effect / XTT | >100 µM |
| Cc1cn([C@H]2C=C[C@@H](CO)O2)c(=O)[nH]c1=O | LAI | - | - | 0.059 µM |
| O=C(OC1[C@H](OC(=O)c2cc(O)c(O)c(O)c2)CC(OC(=O)c2cc(O)c(O)c(O)c2)(C(=O)O)C[C@H]1OC(=O)c1cc(O)c(O)c(O)c1)c1cc(O)c(O)c(O)c1 | RF | - | XTT | ~0.5 µM |
| O=C(O)CCCCCCCCCCCCCNC(=O)C(CO[C@@H]1O[C@H](CO)[C@H](O)[C@H](O)[C@H]1O)NC(=O)CCCCCCCCCCC(=O)O | LAI | - | cytopathic effect / MTT | >100 µM |
| Cc1occc1C(=S)Nc1ccc(Cl)c(C(=O)OC(C)C)c1 | NL4-3 | - | cytopathic effect / XTT | 0.03 µM |
| CC1CCn2c(=S)[nH]c3cccc(c32)N1 | - | - | - | 44 µM |
| Nc1nc(=O)n([C@@H]2C[C@@H](O)[C@H](CO)O2)cc1F | LAI | - | cytopathic effect / MTT | >100 µM |
| Cn1cc(NC(=O)Nc2cc(C(=O)Nc3cc(C(=O)Nc4cc(C(=O)Nc5ccc6cc(S(=O)(=O)O)cc(S(=O)(=O)O)c6c5)n(C)c4)n(C)c3)n(C)c2)cc1C(=O)Nc1cc(C(=O)Nc2cc(C(=O)Nc3ccc4cc(S(=O)(=O)O)cc(S(=O)(=O)O)c4c3)n(C)c2)n(C)c1 | RF | - | cytopathic effect / XTT | 1 µM |
| Cc1cccc(N2C(=O)CSC2c2c(F)cccc2Cl)n1 | IIIB | - | - | 0.031 µM |
| CCCCCCCCCCCCCCNC(=O)[C@@H](N)CO[C@@H]1O[C@H](CO)[C@H](O)[C@H](O)[C@H]1NC(C)=O | LAI | - | RT activity | >10 µM |

4 of the rows above, restated:

structure | strain | mutations | method | value
Cn1cc(NC(=O)Nc2cc(C(=O)Nc3cc(C(=O)Nc4ccc5c(S(=O)(=O)O)cccc5c4S(=O)(=O)O)n(C)c3)n(C)c2)cc1C(=O)Nc1cc(C(=O)Nc2ccc3c(S(=O)(=O)O)cccc3c2S(=O)(=O)O)n(C)c1 | RF | - | cytopathic effect / XTT | 23 µM
CSC1=NS(=O)(=O)N([C@@H]2O[C@H](COC(=O)c3ccccc3)[C@@H](OC(=O)c3ccccc3)[C@H]2OC(=O)c2ccccc2)C(=O)N1 | IIIB | - | syncytia | >40 µg/mL
CN1[C@H](c2cccc(Cl)c2)c2ccccc2S1(=O)=O | RF | - | cytopathic effect / XTT | 5.28 µM
CCCCCCCCCCCCCCNC(=O)[C@H](CS[C@@H]1O[C@H](CO)[C@H](O)[C@H](O)[C@H]1N)NC(=O)CCCCCCCCCCC | LAI | - | RT activity | >22 µM

a–b is a range or a potency band. Blank or dashed fields: not listed here. Rows are shuffled and stem from different studies.